Results of unrelated studies side by side (data: NIAID ChemDB).

All rows: tests in culture; organism: Candida albicans; measure: MIC80

Lines come from different laboratories, so protocols vary.

smiles	strain	read by	result
O=C(OC1CCN(CC(O)(Cn2cncn2)c2ccc(F)cc2F)CC1)C(F)(F)Cl	Y0109	broth dilution	2.222 µM
O=C(O/N=C(\CCn1ccnc1)c1ccccc1)c1ccc(F)cc1		agar diffusion	0.3708 µg/mL
NC(=O)N/N=C/c1ccsc1.NC(=O)N/N=C/c1ccsc1.[Br][Ni][Br]	ATCC 66396	turbidity / absorbance	>250 µg/mL
COc1ccc(C(=O)O/N=C(\CCn2ccnc2)c2ccccc2)cc1		agar diffusion	0.0112 µg/mL
O=C(CC1=Nc2ccccc2C1)OC1CCN(CC(O)(Cn2cncn2)c2ccc(F)cc2F)CC1	Y0109	broth dilution	0.126 µM
Cc1ccc(-c2c3c(N)c4c(nc3nc3c2c(C)nn3-c2ccccc2)CCCCC4)cc1	CCC 127	broth dilution / absorbance	62.5 µg/mL
C[C@@H](c1ncncc1F)[C@](O)(Cn1cncn1)c1ccc(F)cc1F	Y0109	broth dilution	0.011 µM
CCCCN(Cc1cn(Cc2c(Cl)cccc2Cl)nn1)CC(O)(Cn1cncn1)c1ccc(F)cc1F	SC5314		16 µg/mL
NC(=O)N/N=C/c1ccsc1.NC(=O)N/N=C/c1ccsc1.[Cl][Ni][Cl]	ATCC 66396	turbidity / absorbance	250 µg/mL
O=C(O/N=C(\CCn1ccnc1)c1ccccc1)c1ccccc1		agar diffusion	0.3919 µg/mL
Oc1ccc2c(c1)CCc1ccc(O)c(c1)Oc1ccc(cc1)CCc1cccc(O)c1O2	CA10	broth dilution	16 µg/mL
COc1ccc(/C(CCn2ccnc2)=N\O)cc1		agar diffusion	0.5099 µg/mL
C[C@@H](N1CCN(Cc2cn(Cc3ccc(F)cc3F)c3ccccc23)CC1)[C@](O)(Cn1cncn1)c1ccc(F)cc1F	ATCC 64548	resazurin	0.25 µg/mL
O=C(Cc1ccccc1)OC1CCN(CC(O)(Cn2cncn2)c2ccc(F)cc2F)CC1	Y0109	broth dilution	0.034 µM
CCC(C)c1ccc(Cn2cc(CN3CCN([C@H](C)[C@](O)(Cn4cncn4)c4ccc(F)cc4F)CC3)c3ccccc32)cc1	ATCC MYA-1003	resazurin	32 µg/mL
Cc1ccc(C(=O)O/N=C(\CCn2ccnc2)c2ccccc2)cc1		agar diffusion	0.3752 µg/mL
Cc1ccc(-c2c3c(N)c4c(nc3nc3c2c(C)nn3-c2ccccc2)CCC4)cc1	ATCC 10231	broth dilution / absorbance	62.5 µg/mL
O=C(/C=C/c1ccccc1[N+](=O)[O-])OC1CCN(CC(O)(Cn2cncn2)c2ccc(F)cc2F)CC1	Y0109	broth dilution	0.03 µM
Cc1nn(-c2ccccc2)c2nc3nc4c(c(N)c3c(-c3ccc(Cl)cc3)c12)CCCCC4	ATCC 10231	broth dilution / absorbance	125 µg/mL
CCCCN(Cc1cn(Cc2ccc(Br)cc2)nn1)CC(O)(Cn1cncn1)c1ccc(F)cc1F	SC5314		4 µg/mL
O=C(/C=C/c1cccc(Br)c1)OC1CCN(CC(O)(Cn2cncn2)c2ccc(F)cc2F)CC1	Y0109	broth dilution	0.114 µM
CCCCN(Cc1cn(Cc2ccc(C)cc2)nn1)CC(O)(Cn1cncn1)c1ccc(F)cc1F	SC5314		<0.125 µg/mL
C[C@@H](N1CCN(Cc2cn(Cc3ccc(F)cc3F)c3c(C#N)cccc23)CC1)[C@](O)(Cn1cncn1)c1ccc(F)cc1F	ATCC 36082	resazurin	1 µg/mL
O=C(/C=C/c1ccc(F)cc1)OC1CCN(CC(O)(Cn2cncn2)c2ccc(F)cc2F)CC1	Y0109	broth dilution	0.005 µM
C[C@@H](N1CCN(Cc2cn(Cc3ccc(Cl)cc3)c3ccccc23)CC1)[C@](O)(Cn1cncn1)c1ccc(F)cc1F	ATCC 90028	resazurin	0.125 µg/mL
CCCCN(Cc1cn(Cc2ccccc2C#N)nn1)CC(O)(Cn1cncn1)c1ccc(F)cc1F	SC5314		1 µg/mL
Cc1ccc(-c2c3c(N)c4c(nc3nc3c2c(C)nn3-c2ccccc2)CCCC4)cc1	CCC 127	broth dilution / absorbance	31.2 µg/mL
CCCCN(Cc1cn(Cc2ccccc2[N+](=O)[O-])nn1)CC(O)(Cn1cncn1)c1ccc(F)cc1F	SC5314		2 µg/mL
C[C@@H](N1CCN(Cc2cn(-c3ccc(F)cc3)c3cc(Cl)ccc23)CC1)[C@](O)(Cn1cncn1)c1ccc(F)cc1F	ATCC 64548	resazurin	0.125 µg/mL
Cc1ccc(/C=C/C(=O)OC2CCN(CC(O)(Cn3cncn3)c3ccc(F)cc3F)CC2)cc1	Y0109	broth dilution	0.032 µM
C[C@@H](N1CCN(Cc2cn(Cc3ccc(F)cc3F)c3cc(Cl)ccc23)CC1)[C@](O)(Cn1cncn1)c1ccc(F)cc1F	ATCC 64548	resazurin	0.125 µg/mL
CCCC(C)(C)C(=O)OC1CCN(CC(O)(Cn2cncn2)c2ccc(F)cc2F)CC1	Y0109	broth dilution	0.036 µM
C[C@@H](N1CCN(Cc2cn(Cc3ccc(C(F)(F)F)cc3)c3ccccc23)CC1)[C@](O)(Cn1cncn1)c1ccc(F)cc1F	ATCC 90028	resazurin	0.125 µg/mL
O/N=C(/CCn1ccnc1)c1ccc(Cl)cc1		agar diffusion	0.5019 µg/mL

The first 4 rows once more:

smiles,strain,read by,result
O=C(OC1CCN(CC(O)(Cn2cncn2)c2ccc(F)cc2F)CC1)C(F)(F)Cl,Y0109,broth dilution,2.222 µM
O=C(O/N=C(\CCn1ccnc1)c1ccccc1)c1ccc(F)cc1,,agar diffusion,0.3708 µg/mL
NC(=O)N/N=C/c1ccsc1.NC(=O)N/N=C/c1ccsc1.[Br][Ni][Br],ATCC 66396,turbidity / absorbance,>250 µg/mL
COc1ccc(C(=O)O/N=C(\CCn2ccnc2)c2ccccc2)cc1,,agar diffusion,0.0112 µg/mL

MIC50, MIC90 and the like: level of inhibition, or share of isolates inhibited. An empty or dashed field is not shown.